Pooled drug test results. Numbers come from NIAID ChemDB, via PubChem.

All rows: tests on isolated targets; species: HIV-1; target: Protease; method: fluorescence; endpoint: Ki

Neighbouring rows are from separate reports. Blank or dashed fields: not listed here.

smiles | strain | value
CCC(C)Nc1n[nH]c2ccc(S(=O)(=O)N(CC(C)C)C[C@@H](O)[C@H](Cc3ccccc3)NC(=O)O[C@H]3CO[C@H]4OCC[C@H]43)cc12 | WT | <0.0001 µM
O=S1(=O)N(Cc2ccccc2CCc2ccccc2)C[C@H](O)[C@@H](O)CN1Cc1ccccc1-c1ccccc1 | - | 9.3 µM
CC(C)(CCCCNS(C)(=O)=O)CN(C[C@@H](O)[C@H](Cc1ccccc1)NC(=O)O[C@H]1CCOC1)S(=O)(=O)c1ccc(N)cc1 | - | <0.001 µM
CC(C)C(O)[C@@H]1CC(NC(=O)[C@H](OCc2ccccc2)[C@H](O)[C@@H](O)[C@@H](OCc2ccccc2)C(=O)N[C@@H]2CO[C@H](C(O)C(C)C)C2)CO1 | - | 1.59 µM
CCC(=O)O[C@H](C/C=C(\C)C(=O)OC)C[C@@H](OC(C)=O)[C@H](CCCOC(=O)CC(C)C)OC(=O)CC(C)C | - | 4.2 µM
COC(=O)NCCCCC(C)(C)CN(C[C@@H](O)[C@H](Cc1ccccc1)NC(=O)O[C@H]1CCOC1)S(=O)(=O)c1ccc2c(c1)OCO2 | - | <0.001 µM
CCC(=O)O[C@@H](C/C=C(\C)C(=O)OC)C[C@H](OC(C)=O)[C@H](CCCOC(=O)CC(C)C)OC(=O)CC(C)C | - | 29.9 µM
COC(=O)N[C@H](C(=O)NN(CCC[C@@]1(Cc2ccccc2)C(=O)N(C2c3ccccc3C[C@H]2O)C[C@H]1O)Cc1ccc(Br)cc1)C(C)(C)C | - | 0.0063 µM
CC(C)NC(=O)NCCCCC(C)(C)CN(C[C@@H](O)[C@H](Cc1ccccc1)NC(=O)O[C@H]1CO[C@H]2OCC[C@H]21)S(=O)(=O)c1cccc2c1OCO2 | - | <0.001 µM
O=S1(=O)N(Cc2ccccc2)C[C@H](O)[C@@H](O)CN1Cc1ccccc1Cc1ccccc1 | - | >20 µM
COc1ccc(S(=O)(=O)N(CC(C)C)C[C@@H](O)[C@@H]2Cc3ccc(cc3)OCCCC/C=C/CCc3c(O)cccc3C(=O)N2)cc1 | - | 0.004 µM
COC(=O)N[C@H](C(=O)NN(CC[C@@]1(Cc2ccccc2)C(=O)N(C2c3ccccc3C[C@H]2O)C[C@H]1O)Cc1ccc(-c2ccccn2)cc1)C(C)(C)C | - | 0.0063 µM
COC[C@@H]1CC(NC(=O)[C@H](OCc2ccccc2)[C@H](O)[C@@H](O)[C@@H](OCc2ccccc2)C(=O)N[C@@H]2CO[C@H](COC)C2)CO1 | - | 0.103 µM
COc1ccc(S(=O)(=O)N(C[C@@H](O)[C@H](Cc2ccccc2)NC(=O)O[C@H]2CCOC2)CC(C)(C)CCC#N)cc1 | - | <0.001 µM
COC(=O)N[C@H](C(=O)NN(CC[C@]1(Cc2ccccc2)C(=O)N(C2c3ccccc3C[C@H]2O)C[C@H]1O)Cc1ccc(Br)cc1)C(C)(C)C | - | 0.0063 µM
CC(C)C(O)[C@@H]1CC(NC(=O)[C@H](OCc2ccccc2)[C@H](O)[C@@H](O)[C@@H](OCc2ccccc2)C(=O)N[C@H]2c3ccccc3C[C@H]2O)CO1 | - | 0.0016 µM
COc1ccc(S(=O)(=O)N(CC(C)C)C[C@@H](O)[C@H](Cc2ccccc2)NC(=O)[C@@H]2CCC[C@@]3(CCCO3)C2)cc1 | - | 0.26 µM
COc1ccc(S(=O)(=O)N(CC(C)C)C[C@@H](O)[C@@H]2Cc3ccc(cc3)OCCCCCCCc3c(O)cccc3C(=O)N2)cc1 | - | 0.004 µM
CC(C)(C)CC(=O)NCCC(C)(C)CN(C[C@@H](O)[C@H](Cc1ccccc1)NC(=O)O[C@H]1CO[C@H]2OCC[C@H]21)S(=O)(=O)c1ccc2c(c1)OCO2 | - | <0.001 µM
O=C(NC1CO[C@H](CO)C1)[C@H](OCc1ccccc1)[C@H](O)[C@@H](O)[C@@H](OCc1ccccc1)C(=O)N[C@H]1c2ccccc2C[C@H]1O | - | 0.00025 µM
O=C(Cc1cccc2ccccc12)Nc1ccccc1CN1C[C@H](O)[C@@H](O)CN(Cc2ccccc2Br)S1(=O)=O | - | 0.28 µM
CCCCS(=O)(=O)NCCCC(C)(C)CN(C[C@@H](O)[C@H](Cc1ccccc1)NC(=O)O[C@H]1CO[C@H]2OCC[C@H]21)S(=O)(=O)c1ccc2c(c1)OCO2 | - | <0.001 µM
COc1ccc(S(=O)(=O)N(CC(C)C)C[C@@H](O)[C@H](Cc2ccccc2)NC(=O)C2CCCC3(CCCC3)C2)cc1 | - | 0.685 µM
CN(C)C(=NCCCC(C)(C)CN(C[C@@H](O)[C@H](Cc1ccccc1)NC(=O)O[C@H]1CO[C@H]2OCC[C@H]21)S(=O)(=O)c1ccc2c(c1)OCO2)NC#N | - | <0.001 µM
CC(C)CN(C[C@@H](O)[C@H](Cc1ccccc1)NC(=O)O[C@H]1CO[C@H]2OCC[C@H]21)S(=O)(=O)c1ccc2onc(CNC(C)C)c2c1 | WT | <0.0001 µM
CCNC(=O)OCCCCC(C)(C)CN(C[C@@H](O)[C@H](Cc1ccccc1)NC(=O)O[C@H]1CO[C@H]2OCC[C@H]21)S(=O)(=O)c1ccc2c(c1)OCO2 | - | <0.001 µM
O=S1(=O)N(Cc2ccccc2)C[C@H](O)[C@@H](O)CN1Cc1ccccc1CCc1ccccc1 | - | >20 µM
COC(=O)N[C@H](C(=O)NN(CC[C@@]1(Cc2ccccc2)C(=O)N(C2c3ccccc3C[C@H]2O)C[C@@H]1O)Cc1ccc(-c2cccnc2)cc1)C(C)(C)C | - | 0.0063 µM
CC(C)(CCCCN)CN(C[C@@H](O)[C@H](Cc1ccccc1)NC(=O)O[C@H]1CO[C@H]2OCC[C@H]21)S(=O)(=O)c1ccc(N)cc1 | - | <0.001 µM
COC(=O)N[C@H](C(=O)NN(CC[C@@]1(Cc2ccccc2)C(=O)N(C2c3ccccc3C[C@H]2O)C[C@H]1O)Cc1ccc(-c2ccncc2)cc1)C(C)(C)C | - | 0.0063 µM
CCCCOC(=O)NCCC(C)(C)CN(C[C@@H](O)[C@H](Cc1ccccc1)NC(=O)O[C@H]1CO[C@H]2OCC[C@H]21)S(=O)(=O)c1ccc2c(c1)OCO2 | - | <0.001 µM
COC(=O)N[C@H](C(=O)NN(CC[C@@]1(Cc2ccccc2)C(=O)N(C2c3ccccc3C[C@H]2O)C[C@@H]1O)Cc1ccc(-c2ccccn2)cc1)C(C)(C)C | - | 0.0063 µM
CC(C)(CCCNC(=O)c1ccccc1)CN(C[C@@H](O)[C@H](Cc1ccccc1)NC(=O)O[C@H]1CO[C@H]2OCC[C@H]21)S(=O)(=O)c1ccc2c(c1)OCO2 | - | <0.001 µM
CC(C)(C)NC(=O)[C@@H]1C[C@@H]2CCCC[C@@H]2CN1C[C@@H](O)[C@H](Cc1ccccc1)NC(=O)[C@@H]1CCCS(=O)(=O)C1 | - | 0.015 µM
COCC(=O)NCCCCC(C)(C)CN(C[C@@H](O)[C@H](Cc1ccccc1)NC(=O)O[C@H]1CO[C@H]2OCC[C@H]21)S(=O)(=O)c1ccc2c(c1)OCO2 | - | <0.001 µM
COC(=O)[C@@H]1CCCN1C(=O)C(=O)C(Cc1ccccc1)NC(=O)OCc1ccccc1.COC(=O)[C@@H]1CCCN1C(=O)C(=O)C(Cc1ccccc1)NC(=O)OCc1ccccc1 | - | 0.405 µM